Results from article PMC3406249 (Hepatology (Baltimore, Md.), 2012).
No end group written: not given here.

System: HCVpp packaged with envelope proteins from major genotypes
Details: 12 h

Sequence: MANAGLQLLGFILAFLGW [CL58]
- IC50: 600 to 5000 nM
